Pooled drug test results. Numbers come from NIAID ChemDB, via PubChem.

Common to all: toxicity to cultured cells; cells: Huh7; endpoint: CC50

Blank or dashed fields: not listed here.

structure,read by,value
CC(C)Oc1nc(N)nc2ccc(-c3ccc(NC(=O)C(C)C)cc3)nc12,,>20 µM
CCCc1ccc2c(Nc3cc(C)ccc3Sc3ccc(O)cc3)ncnc2n1,MTT,31.1 µM
COc1ccc(-c2cnc3nc(N)nc(N4CCN(CCc5ccccc5)CC4)c3n2)cc1OC,ATP,10–20 µM
Nc1nc(O[C@@H]2CCOC2)c2nc(-c3ccc(NC(=O)[C@H]4CCNC4)cc3)ccc2n1,,>20 µM
CCCCCC(=O)N1CCN(c2nc(N)nc3ncc(-c4ccc(OC)c(OC)c4)nc23)CC1,ATP,10–20 µM
Nc1nc(N2CCOCC2)c2nc(-c3ccoc3)cnc2n1,,>20 µM
N#Cc1c(NCC2CCCCC2)s[nH]c1=O,,>50 µM
Nc1nc(N2CCOCC2)c2nc(-c3cccc(Cl)c3Cl)cnc2n1,,>20 µM
COc1ccc(-c2cnc3nc(N)nc(N4CCN(C(=O)Nc5ccc(C#N)cc5)CC4)c3n2)cc1OC,ATP,>20 µM
CC(C)(N)C(=O)Nc1ccc(-c2ccc3nc(N)nc(O[C@@H]4CCOC4)c3n2)cc1,,10–20 µM
Cc1ccc(Sc2ccccc2)c(Nc2ncnc3nc(C)ccc23)c1,MTT,22.2 µM
CCCCc1ccc(C(=O)N2CCN(c3nc(N)nc4ncc(-c5ccc(OC)c(OC)c5)nc34)CC2)cc1,ATP,<10 µM
Cc1ccc(Sc2ccc(F)cc2)c(Nc2ncnc3nc(C(C)C)ccc23)c1,MTT,4.8 µM
COCCOC(=O)N1CCN(c2nc(N)nc3ncc(-c4ccc(OC)c(OC)c4)nc23)CC1,ATP,10–20 µM
CCCCOc1nc(N)nc2ncc(-c3ccc(F)cc3)nc12,,>20 µM
N#Cc1c(Nc2ccc(F)cc2)s[nH]c1=O,,>50 µM
CCSc1ncc2c(Nc3cc(C)ccc3Sc3ccc(O)cc3)ncnc2n1,MTT,46.9 µM
N#Cc1c(Nc2cccnc2)s[nH]c1=O,,>50 µM
CS(=O)(=O)CCNc1nc(N)nc2ccc(-c3cccc(NS(=O)(=O)C4CC4)c3)nc12,,>20 µM
CNOCc1ccc(-c2cnc3nc(N)nc(N4CCOCC4)c3n2)cc1,,>20 µM
Nc1nc(O[C@H]2CCOC2)c2nc(-c3ccc(C(=O)NCC(F)(F)F)cc3)ccc2n1,,>20 µM
CCOc1nc(N)nc2ncc(-c3ccc(O)cc3)nc12,,>20 µM
N#Cc1c(Nc2ccc(Br)c(F)c2)s[nH]c1=O,,>50 µM
CS(=O)(=O)Nc1cccc(-c2ccc3nc(N)nc(O[C@@H]4CCOC4)c3n2)c1,,>20 µM
Cc1ccc(Nc2s[nH]c(=O)c2C#N)cc1,,>50 µM
CC(C)(N)C(=O)Nc1ccc(-c2ccc3nc(N)nc(NCCS(C)(=O)=O)c3n2)cc1,,<10 µM
CC(C)c1cccc(C(C)C)c1Nc1s[nH]c(=O)c1C#N,,>50 µM
CC(C)Oc1nc(N)nc2ccc(-c3ccc(C(=O)NC4CCCC4)cc3)nc12,,>20 µM
N#Cc1c(Nc2cc(C(F)(F)F)cc(C(F)(F)F)c2)s[nH]c1=O,,>50 µM
CCOc1nc(N)nc2ccc(-c3cccc(NS(=O)(=O)c4ccc(NC(C)=O)s4)c3)nc12,,>20 µM

For reference, 4 entries again:

structure	read by	value
CCCCc1ccc(C(=O)N2CCN(c3nc(N)nc4ncc(-c5ccc(OC)c(OC)c5)nc34)CC2)cc1	ATP	<10 µM
CCOc1nc(N)nc2ncc(-c3ccc(O)cc3)nc12		>20 µM
CS(=O)(=O)Nc1cccc(-c2ccc3nc(N)nc(O[C@@H]4CCOC4)c3n2)c1		>20 µM
COCCOC(=O)N1CCN(c2nc(N)nc3ncc(-c4ccc(OC)c(OC)c4)nc23)CC1	ATP	10–20 µM

CCn: concentration that lowers growth or viability of the cells by n%. Conditions beyond the fields shown may differ between rows. Two numbers with a dash give a range or band.